Experimental data published in publication PMC6123721, “Transient antibody-antigen interactions mediate the strain-specific recognition of a conserved malaria epitope” (Communications Biology, 2018).

Biological target: T1, MSP2 14-22 peptide (minimal 6D8 epitope of merozoite surface protein 2) (Plasmodium falciparum, conserved region …, UniProt P19599)
T1 chain: NAYNMSIRR
Test: NMR chemical shift perturbation
Conditions: both partners purified

B1: 6D8 single-chain Fv (scFv) (scFv, V domains shown)
VH: QVQLQQSGDELVKPGASVKLSCTVSGFNIKDDFIHWMKQRPEQGLEWIGRIDPANGYTKYAPKFQDKATMTADTSSNTAYLQLSSLASEDAAVYYCATYGVAYWGQGTLVTVSA
VL: DIVLTQSPASLAVSLGQRATISCKASQSVDHDGDSYMNWFQQKPGQSPKLLIYAASNLESGIPARFSGSGSGTDFTLNIHPVEEEDAATYYCQQTNEDPYTFGGGTKLEIK
notes: not shown: His-tag, C-terminal, kept
Does B1 bind?
Result: binds
